Measured values from paper PMC11599015, “Dimerization of Rabies Virus Phosphoprotein and Phosphorylation of Its Nucleoprotein Enhance Their Binding Affinity” (2024).

Target: RABV phosphoprotein (P)

## RABV nucleoprotein (N) same, then treated with CKII
  other: share of bound P2 dissociating too slowly to measure: stronger; reference about 5
